Literature values, collected in patent US11192850B2, “N-aryl oxamic acids” (Purdue Research Foundation, priority 2020, dated 2021).

Amino acid sequences for entries named in this document (tags omitted). A change or cut given only in a name is not applied to a line headed by its entry.
UniProt I6WXK4: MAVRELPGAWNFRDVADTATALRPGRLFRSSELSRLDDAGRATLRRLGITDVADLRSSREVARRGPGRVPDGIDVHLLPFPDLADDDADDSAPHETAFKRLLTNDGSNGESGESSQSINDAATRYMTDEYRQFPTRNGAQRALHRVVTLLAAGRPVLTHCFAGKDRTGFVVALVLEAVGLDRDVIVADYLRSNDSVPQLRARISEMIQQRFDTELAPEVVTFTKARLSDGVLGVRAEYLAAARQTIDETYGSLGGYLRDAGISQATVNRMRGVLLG

Target: mPTPB (Mycobacterium tuberculosis (strain ATCC 25618 / H37Rv), UniProt I6WXK4)
Conditions: reported by other authors; cited from earlier work

(oxalylamino methylene)-thiophene sulfonamide [Compound VI]
selectivity for mPTPB over six human PTPs: over 60 fold
